Values after ≈ are worked out from the molar mass of the structure shown.
Tests used:
Format in all cases: functional
[1] = test system: Nannizzia gypsea; experiment: Antifungal activity against Microsporum gypseum by colorimetric broth microdilution method
[2] = test system: Cryptococcus neoformans; experiment: Antifungal activity against flucytosine-resistant, Cryptococcus neoformans ATCC 90113 by colorimetric broth microdilution method
[3] = test system: Candida albicans; experiment: Antifungal activity against Candida albicans NCPF3153 by colorimetric broth microdilution method

## CC(=O)O[C@@H]1C[C@H]2O[C@@H]3C=C(C)CC[C@]3(C)[C@]1(C)[C@]21CO1
[1]
  MIC: 2 µg/mL (≈ 6.84 µM)
[2]
  MIC: 4 µg/mL (≈ 13.7 µM)
[3]
  MIC: 1 µg/mL (≈ 3.42 µM)

## CC1=C[C@H]2O[C@@H]3C[C@@H](O)[C@](C)([C@@]2(C)CC1)[C@]31CO1 [TRICHODERMOL]
[2]
  MIC: 16 µg/mL (≈ 63.9 µM)
[3]
  MIC: 16 µg/mL (≈ 63.9 µM)

## CC(=O)O[C@@H]1C[C@H]2O[C@@H]3C=C(CO)CC[C@]3(C)[C@]1(C)[C@]21CO1
[2]
  MIC: 64 µg/mL (≈ 208 µM)
[3]
  MIC: 64 µg/mL (≈ 208 µM)
